Source: patent publication US6258839A, “Isolation of naturally occuring isoflavanone and some clinical uses thereof” (priority 1997, dated 2001)

System: HIV-1 AZT^res
Test: in vitro anti-HIV activity, AZT resistant HIV-1
Assay type: cell-based

COc1c(O)cc(C2COc3cc(O)cc(O)c3C2=O)cc1CC=C(C)C (racemic) [PMZ-1]
activity against azidothymidine resistant virus: active
